Genome-wide point mutation profile of HIV-1: Nef

Reference: Al-Mawsawi et al. 2014, doi:10.1186/s12977-014-0124-6.

Protein: Nef of HIV-1 NL4-3, numbered from its first residue.
From base 9076 on, changes also alter the 3' U3.
Effects on overlapping genes or RNA elements are not listed.

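Seven fragments of pNL4-3 were mutated by error-prone PCR, and each virus pool was passaged in CEM T cells. The RC index is the frequency of a change after passage round 2 divided by its frequency in the plasmid library.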

RC index: lower means poorer replication; rough cut-offs are 0.1 (lethal) and 0.2 (tolerated).
A change reads original residue, position, new residue.

substitution,base,replication capacity index
Y81F,A9028T,0.767
K82E,A9030G,0.555
K82T,A9031C,0.910
K82N,G9032C,0.577
K82N,G9032T,1.06
A83S,G9033T,0.551
A83G,C9034G,0.557
A84T,G9036A,0.593
A84V,C9037T,0.563
V85I,G9039A,1.36
V85A,T9040C,0.790
D86N,G9042A,1.33
D86Y,G9042T,0.297
D86G,A9043G,0.667
D86V,A9043T,0.441
D86E,T9044A,0.493
L87V,C9045G,0.342
L87H,T9046A,0.541
L87P,T9046C,0.353
S88C,A9048T,0.676
S88N,G9049A,0.801
S88R,C9050G,0.275
H89P,A9052C,0.163
H89R,A9052G,0.379
H89L,A9052T,0.746
H89Q,C9053A,0.866
H89Q,C9053G,0.115
F90I,T9054A,0.548
F90V,T9054G,0.229
F90Y,T9055A,0.606
F90C,T9055G,0.369
F90L,T9056A,0.699
F90L,T9056G,0.240
L91I,T9057A,0.445
L91S,T9058C,0.0557
L91F,A9059T,0.130
K92E,A9060G,0.133
K92I,A9061T,0.200
E93A,A9064C,0.577
E93G,A9064G,0.490
E93V,A9064T,0.463
E93D,A9065T,0.387
K94E,A9066G,0.559
K94R,A9067G,1.13
K94N,G9068T,0.621
G95E,G9070A,0.142
G96A,G9073C,0.851
L97M,C9075A,0.0936
E98Q,G9078C,0.449
E98G,A9079G,0.306
E98D,A9080C,0.455
E98D,A9080T,0.519
G99W,G9081T,0.425
G99A,G9082C,0.460
G99V,G9082T,0.236
L100I,C9084A,0.598
L100Q,T9085A,0.828
I101V,A9087G,0.907
I101F,A9087T,1.16
H102N,C9090A,0.664

The first 3 entries again:

substitution	base	replication capacity index
Y81F	A9028T	0.767
K82E	A9030G	0.555
K82T	A9031C	0.910

Nucleotide positions follow pNL4-3.
Clones carried about five changes per kilobase, which can drag down the index of neutral changes.
An index over 1, which the authors read as above wild type, was rare (1.9% of all changes in the genome).